Data source: PubChem BioAssay AID1259414 (Drosophila RNAi Screening Center, 2018)

- Assay: 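Fly genes that alter Wolbachia amount inside host cells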 (primary screen)
- Cells: Drosophila JW18 cells infected with Wolbachia
- Reagent: long dsRNA against Drosophila genes, 0.25 µg dsRNA per well of a 384-well plate
- Duration: 5 days
- Challenge: cells persistently infected with Wolbachia before knock-down; no added drug
- Measurement: 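Imaged fluorescence in situ signal for Wolbachia 23S rRNA per DAPI-counted host cell, given as a robust z-score within each plate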
- Scale: Wolbachia per cell robust z: higher = more Wolbachia per host cell than the plate typical
- Rule for the call: 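Hit when robust z is 1.5 or more, or -1.5 or less, in at least two of three replicates; excludes dsRNAs with several or no targets, genes not expressed in JW18 and well A1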
In all, the deposit lists about 24,000 reagents; shown is a random part of those that have a named target and a result. Of all reagents, about 1,210 (5%) got an active call. 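Inactive calls also include excluded dsRNAs with several or no targets, genes unexpressed in JW18, and well A1, regardless of score.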 Entries without a mark were called inactive. The numbers tell different reagents against one gene apart. Names joined by + are all predicted targets of the reagent.

Gene,reagent,"Wolbachia per cell robust z, rep 1","Wolbachia per cell robust z, rep 2","Wolbachia per cell robust z, rep 3"
Slik,1,-1.02,0.14,-0.233
Slik,2,-0.149,-0.431,-0.295
stau,1,-2.16,0.228,0.242
Lar,1,-0.00248,-0.0969,-0.619
Lar,2,1.06,-0.097,0.838
CG4950,1,0.641,0.76,0.292
capu,1,0.0692,-1.33,-0.419
capu,2,0.693,0.691,1.96
capu,3,0.315,-1.26,-0.0884
Ctr1C,1,0.76,0.431,-2.65
Scm,1,-1.06,-0.327,-4.49
orb2 + CG43783,1,0.353,0.25,-0.128
orb2 + CG43783,2,0.199,-5.92,-0.527
CG11044,1,-0.37,-0.00243,0.169
CG11044,2,0.409,-0.66,0.567
galla-1,1,-0.105,-2.53,-0.923
CG10553,1,-0.416,0.0279,-0.258
Cpr47Ed,1,-0.849,-0.978,-0.47
CG7695,1,-1.91,-1.79,1.22
Spc105R,1,3.33 (active),4.57,-0.699
Spc105R,2,4.81 (active),4.37,6.3
Wnt6,1,-0.0223,-0.195,-1.07
Wnt6,2,-0.229,0.362,-1.94
Lrr47,1,1.97 (active),1.41,2.48
Cpr65Ec,1,-0.156,-1.42,-1.25
Cpr65Ec,2,-0.415,-1.29,-1.47
CG6073,1,-0.874,-0.35,-1.15
CG6073,2,0.332,0.872,-0.474
CG6073,3,0.541,1.41,1.76
CG4884,1,0.441,-0.563,-0.59
CG4884,2,0.842,0.944,-0.0397
Neb-cGP,1,-0.257,0.303,-0.185
Ephrin,1,-3.52,0.585,0.764
alien + CG17906,1,0.675,0.849,-1.04
alien + CG17906,2,-0.951,-0.981,-0.936
gek,1,-1.59,-0.0546,-1.15
CG5355,1,-0.513,0.0936,0.535
cactin,1,-0.119,-1.43,-1
CG5934,1,-0.00552 (active),-1.64,-1.64
CG5934,2,-1.08,-0.44,0.943
vret,1,0.827,-0.361,-0.865

9 successive reagents already listed, for reference:
Gene,reagent,"Wolbachia per cell robust z, rep 1","Wolbachia per cell robust z, rep 2","Wolbachia per cell robust z, rep 3"
Lrr47,1,1.97 (active),1.41,2.48
Cpr65Ec,1,-0.156,-1.42,-1.25
Cpr65Ec,2,-0.415,-1.29,-1.47
CG6073,1,-0.874,-0.35,-1.15
CG6073,2,0.332,0.872,-0.474
CG6073,3,0.541,1.41,1.76
CG4884,1,0.441,-0.563,-0.59
CG4884,2,0.842,0.944,-0.0397
Neb-cGP,1,-0.257,0.303,-0.185

The list goes on:
Gene,reagent,"Wolbachia per cell robust z, rep 1","Wolbachia per cell robust z, rep 2","Wolbachia per cell robust z, rep 3"
Ak2,1,-1.95,-3.12,-4.07
rpk,1,-0.775,0.795,-0.54
rpk,2,-0.248,-1.02,-0.155
CG14744,1,0.197,1.05,0.408
CG9406,1,-1.44,-0.052,-0.741
shop,1,1.25,-1.04,-0.997
shop,2,-8.49 (active),-0.181,-5.62
by,1,-1.52,0.0563,-0.877
by,2,0.932,-0.171,1.24
MAGE,1,0.387,0.0415,-0.00808
Sptr,1,1.27,-4.82,1.78
CG1146,1,0.0835,0.357,-0.771
CG1146,2,0.89,0.502,0.134
dyw,1,-1.04,0.539,0.692
dyw,2,-0.159,1.5,1.36
Pp1-Y2,1,-1.04,-0.0975,0.438
csw,1,0.414,1.79,1.16
csw,2,-0.0201,0.123,-1.15
csw,3,-0.307,-0.673,-1.46
dally,1,0.392,-0.549,0.286
dally,2,0.219,-0.687,0.373
CG11241,1,0.849,-0.875,0.821
CG11241,2,-1.19,-0.85,0.346
corolla,1,-1.38,0.136,-0.338
Oamb,1,0.2,1.36,-1.08
Oamb,2,0.423,-2.05,-0.252
Oamb,3,-5.7,0.087,-0.0728
